Anti-infective test results gathered from many reports (values: NIAID ChemDB through PubChem).

Shared fields: tests in culture; agent: Mycobacterium tuberculosis

ECn: concentration that inhibits the pathogen or its effect by n%. MIC bound comes from a single tested concentration. MIC50, MIC90 and the like: level of inhibition, or share of isolates inhibited. Fold resistance has wild type as its base. An empty or dashed field is not shown. Percent inhibition refers to the dose given; in toxicity tests it is the harm to the cells. Rows are shuffled and stem from different studies.

structure	method	endpoint	changes	dose	strain	conditions	cells	value
CC1(C)OC(=O)C(=Cc2ccc(-c3ccccc3[N+](=O)[O-])o2)C(=O)O1	BACTEC	inhibition	-	12.5 µg/mL	H37Rv	-	-	-1%
c1ccc(-c2cc3ccc(N4CCOCC4)nc3nc2N2CCCCC2)cc1	-	inhibition	-	6.25 µg/mL	H37Rv	-	-	83%
Cc1cccc(Sc2nc(Cl)nc3nc[nH]c23)c1	-	inhibition	-	6.25 µg/mL	H37Rv	-	-	0%
C[N+](C)(C)CC(=O)N/N=C(\C(=O)NC1=C(Cl)C(=O)c2ccccc2C1=O)C(C#N)c1csc(-c2ccc([N+](=O)[O-])cc2)n1.[Cl-]	BACTEC	inhibition	-	12.5 µg/mL	H37Rv	-	-	0%
COc1ccc(Sc2nc(Cl)nc3nc[nH]c23)cc1OC	-	inhibition	-	6.25 µg/mL	H37Rv	-	-	31%
O=C(c1ccncc1)N(/N=C/c1ccccc1Cl)C(=O)c1cnccn1	-	MIC	-	-	H37Rv	-	-	0.25 µg/mL
CC(C)N=c1cc2n(-c3ccc(Cl)cc3)c3ccccc3nc-2cc1Nc1ccc(Cl)cc1	-	MIC	-	-	29	multidrug-resistant	-	0.25 µg/mL
c1ccc(-c2cc(N3CCOCC3)nc3nc(N4CCOCC4)ccc23)cc1	-	inhibition	-	6.25 µg/mL	H37Rv	-	-	0%
N#C/C(=C\c1ccc(Cl)cc1)C(=O)NC(N)=O	BACTEC	MIC bound	-	-	H37Rv	-	-	>12.5 µg/mL
CC1CCC/C(=N\NC(=O)Cc2csc3nc(-c4ccc(Cl)cc4)cn23)C1	-	MIC	-	-	H37Rv	-	-	<6.25 µg/mL
O=C1NC(=S)NC1/C=C/c1ccccc1	-	EC50	-	-	H37Rv	-	-	<6.25 µg/mL
COc1nc2ccc(Br)cc2cc1C(c1ccccc1)C(O)(CCn1cncn1)c1ccccc1	-	MIC90	-	-	H37Rv	-	-	52.94 µg/mL
O=C(N/N=C/c1ccccc1[N+](=O)[O-])c1ccccc1-c1nc2ccccc2[nH]1	-	inhibition	-	0.031 µg/mL	H37Rv	-	-	48%
Cc1ccc(C)c(CSc2nc(=O)[nH]c3nc[nH]c23)c1	-	MIC90	-	-	H37Rv	-	-	>6.25 µg/mL
c1ccc(N/N=c2/ccc3ccccc3o2)cc1	-	MIC	-	-	-	-	-	>200 µg/mL
CC1CCC/C(=N\NC(=O)Cc2csc3nc(-c4ccccc4)cn23)C1	-	EC50	-	-	H37Rv	-	-	>6.25 µg/mL
COc1ccccc1CSc1nc(=O)[nH]c2nc[nH]c12	-	MIC90	-	-	H37Rv	-	-	>6.25 µg/mL
COc1cccc(/C=N/NC(=O)c2ccccc2Cl)c1O	-	MIC	-	-	-	-	-	200 µg/mL
O=c1nc(SCc2cccc(Br)c2)c2[nH]cnc2[nH]1	-	MIC90	-	-	H37Rv	-	-	>6.25 µg/mL
COCCOc1nc2ccc(Br)cc2cc1C(c1ccccc1)C(O)(CCN(C)C)c1cccc2ccccc12	-	MIC90	-	-	H37Rv	-	-	9.5 µg/mL
Cc1c(Sc2ccccc2)[n+](=O)c2cc(C(F)(F)F)ccc2n1[O-]	-	inhibition	-	6.25 µg/mL	H37Rv	-	-	100%
NNC(=O)CNc1cc(Cl)cc(Cl)c1	BACTEC	inhibition	-	12.5 µg/mL	H37Rv	-	-	7%
CCN(CC)CCCC(O)(c1cccc2ccccc12)C(c1ccccc1)c1cc2cc(Br)ccc2nc1OC	-	MIC90	-	-	H37Rv	-	-	47.47 µg/mL
COc1ccc2c(-c3ccccc3)cc(N3CCOCC3)nc2n1	-	MIC	-	-	H37Rv	-	-	>6.25 µg/mL
CN(CCCC#CC(C)(C)C)c1cccc2c1CCC(=O)N2	-	inhibition	-	6.25 µg/mL	H37Rv	-	-	100%
CCC(C)OC(=O)N1CCN(c2ccc3cc(-c4ccccc4)c(N4CCN(C(=O)OC(C)CC)CC4)nc3n2)CC1	-	inhibition	-	6.25 µg/mL	H37Rv	-	-	48%
N#CNNC(=O)CCCCC(=O)NNC#N	-	MIC	-	-	-	-	-	>40 µg/mL
CC1(C)COC(c2ccc(C(F)(F)F)cc2C(O)c2ccc3ccccc3c2)=N1	BACTEC	MIC bound	-	-	H37Rv	-	-	>12.5 µg/mL
CN(CC#CC#CC(C)(C)C)c1cccc2c1CCC(=O)N2	-	inhibition	-	6.25 µg/mL	H37Rv	-	-	19%
O=C(Cc1csc2nc(-c3ccccc3)cn12)NN=C1CCCCC1	-	MIC	-	-	H37Rv	-	-	>6.25 µg/mL
O=C(c1ccncc1)N(/N=C/c1ccco1)C(=O)c1cnccn1	-	MIC	-	-	H37Rv	-	-	4 µg/mL
Cc1c(S(=O)(=O)c2ccccc2)[n+](=O)c2ccc(Cl)cc2n1[O-]	-	inhibition	-	6.25 µg/mL	H37Rv	-	-	100%
O=C(N/N=C/c1ccco1)c1ccccc1-c1nc2ccccc2[nH]1	-	EC50	-	-	H37Rv	-	-	>0.031 µg/mL
O=[N+]([O-])[O][Ga]([O][N+](=O)[O-])[O][N+](=O)[O-]	-	inhibition	-	500 µM	MDR isolates	inside macrophages	-	85%
COc1nc2ccc(Br)cc2cc1C(c1ccccc1)C(O)(CCN1CCN(c2ncccn2)CC1)c1ccc2ccccc2c1	-	MIC90	-	-	H37Rv	-	-	67.47 µg/mL
CC(=O)OC1CC2Cc3ccccc3C3(O)COC213	BACTEC	MIC bound	-	-	H37Rv	-	-	≤12.5 µg/mL
O=c1nc(SCc2ccc(Cl)cc2[N+](=O)[O-])c2[nH]cnc2[nH]1	-	MIC	-	-	H37Ra	-	-	>12.8 µg/mL
O=[N+]([O-])c1cc2cc(-c3ccccc3)c(N3CCCCC3)nc2nc1N1CCCCC1	-	inhibition	-	6.25 µg/mL	H37Rv	-	-	79%
CCOc1cc2c(cc1F)n([O-])c(C)c(Sc1ccccc1)[n+]2=O	-	MIC	-	-	H37Rv	-	-	>6.25 µg/mL
C[C@H]1COc2c(N3CCN(C)CC3)c(F)cc3c(=O)c(C(=O)O)cn1c23	-	MIC	-	-	106-2	-	-	0.5 µg/mL
C=C/C(C)=C/[C@@]1(C)SC(=O)C(C)=C1O	-	MIC	-	-	NHN335	-	-	20 µg/mL
COc1cc(/C=N/N(C(=O)c2ccncc2)C(=O)c2cnccn2)ccc1O	-	MIC	-	-	9 isolates (resistant)	-	-	>16 µg/mL
c1ccc(-c2cc3ccc(N4CCCCC4)nc3nc2N2CCNCC2)cc1	-	inhibition	-	6.25 µg/mL	H37Rv	-	-	88%
CC1CCCC2(C1)SCC(=O)N2NC(=O)Cc1csc2nc(-c3ccccc3)cn12.O	-	MIC	-	-	H37Rv	-	-	>6.25 µg/mL
NNC(=O)c1ccccc1SSc1ccccc1C(=O)NN	BACTEC	inhibition	-	12.5 µg/mL	H37Rv	-	-	83%
CCOc1c(I)cc(C(=O)NN)cc1[N+](=O)[O-]	-	MIC	-	-	-	-	-	>40 µg/mL
c1ccc(-c2cc(N3CCN(c4ccccc4)CC3)nc3nc(N4CCN(c5ccccc5)CC4)ccc23)cc1	-	MIC	-	-	H37Rv	-	-	>6.25 µg/mL
Cc1c(Sc2ccccc2)[n+](=O)c2cc(F)c(F)cc2n1[O-]	-	inhibition	-	6.25 µg/mL	H37Rv	-	-	100%
CCN(CC)c1cc2oc3cc(N)cc(=N)c-3nc2cc1C	-	MIC	-	-	PAS-R	-	-	0.8 µg/mL
O=C(NN1C(=O)C(Cl)C1c1ccc(Cl)cc1)c1ccccc1-c1nc2ccccc2[nH]1	-	inhibition	-	0.031 µg/mL	H37Rv	-	-	97%
CC(=O)NNc1nc(C)c(C(=O)NNC(=O)C(=O)Nc2c(C)cccc2C(C)C)s1	resazurin	inhibition	-	6.25 µg/mL	H37Rv	-	-	2%
COc1ccc(C2C(Cl)C(=O)N2NC(=O)c2ccccc2-c2nc3ccccc3[nH]2)cc1	-	inhibition	-	0.031 µg/mL	H37Rv	-	-	52%
CS(=O)(=O)NC(=NCCOS(C)(=O)=O)N[N+](=O)[O-]	resazurin	MIC bound	-	-	H37Rv	-	-	>6.25 µg/mL
CC(=O)NNC(=O)CCCl	-	MIC	-	-	-	-	-	>200 µg/mL
Cc1cccc(CSc2ccncc2)c1	-	inhibition	-	6.25 µg/mL	H37Rv	-	-	8%
CC1CCC2(CC1)SC(C)C(=O)N2NC(=O)Cc1csc2nc(-c3ccccc3)cn12	-	inhibition	-	6.25 µg/mL	H37Rv	-	VERO	99%
Cc1cc(Cl)ccc1NC(=O)CC/C(CC(=O)C(C)C)=N\NC(=O)C[n+]1ccccc1.[Cl-]	BACTEC	MIC bound	-	-	H37Rv	-	-	>12.5 µg/mL
O=C(N/N=C/c1ccc(O)cc1)c1ccccc1-c1nc2ccccc2[nH]1	-	inhibition	-	0.031 µg/mL	H37Rv	-	-	61%
S=C(S)Nc1ccc(Cl)cc1	BACTEC	MIC	-	-	H37Rv	-	-	≥12.5 µg/mL
Cc1c(S(=O)(=O)c2ccccc2)[n+](=O)c2cc(Cl)ccc2n1[O-]	-	inhibition	-	6.25 µg/mL	H37Rv	-	-	100%
COc1nc2ccc(Br)cc2cc1C(c1ccccc1)C(O)(CCN1CCOCC1)c1cccc2ccccc12	-	MIC90	-	-	H37Rv	-	-	59.76 µg/mL
CCc1ccc([C@H]2C[C@@H](C(F)(F)F)n3ncc(C(=O)NCc4ccc5c(c4)OCO5)c3N2)cc1	fluorescence	fold resistance	MmpL3: Phe255Val	-	H37Rv	-	-	1.9
CC(=O)NCC(=O)NN	-	MIC	-	-	-	-	-	>40 µg/mL
Cc1ccc(S(=O)(=O)C(=S)N(C)N(C)C)cc1	-	MIC	-	-	KM-R	-	-	12.8 µg/mL
O=C(c1ccncc1)N(NCc1cccc(Cl)c1)C(=O)c1cnccn1	-	MIC	-	-	H37Rv	-	-	0.125 µg/mL
CCC1CCC(=NNC(=O)Cc2csc3nc(-c4ccc(Cl)cc4)cn23)CC1	-	EC50	-	-	H37Rv	-	-	<6.25 µg/mL
O=C1NC(=O)/C(=C/c2ccc(C(F)(F)F)cc2)N1	-	EC50	-	-	H37Rv	-	-	<6.25 µg/mL
CCOc1ccc(C(=O)N/N=C/c2ccc(Cl)cc2)cc1	-	MIC	-	-	-	-	-	>200 µg/mL
Nc1nc(C(=O)O)cc(=O)[nH]1	BACTEC	inhibition	-	12.5 µg/mL	H37Rv	-	-	0%
Cc1cccc(/C=C2/NC(=S)NC2=O)c1	-	inhibition	-	6.25 µg/mL	H37Rv	-	-	88%
Cc1c(Cl)[n+](=O)c2cc(F)c(F)cc2n1[O-]	-	inhibition	-	6.25 µg/mL	H37Rv	-	-	100%
O=C(N/N=C/c1ccc(Cl)cc1)c1ccccc1-c1nc2ccccc2[nH]1	-	EC50	-	-	H37Rv	-	-	>0.031 µg/mL
CCC(C)OC(=O)N1CCN(c2nc3nc(N4CCOCC4)ccc3cc2-c2ccccc2)CC1	-	MIC	-	-	H37Rv	-	-	>6.25 µg/mL
CCC1CCC2(CC1)SC(C)C(=O)N2NC(=O)Cc1csc2nc(-c3ccccc3)cn12.O.O	-	MIC	-	-	H37Rv	-	VERO	3.13 µg/mL
O=C1NC(=S)N/C1=C/c1cccc(OCc2ccc(Cl)cc2Cl)c1	-	EC50	-	-	H37Rv	-	-	<6.25 µg/mL
Cc1cc(O)c2c(c1)C(=O)c1c(oc3c1c(=O)oc1cccc(C)c13)C2=O	-	MIC	-	-	MTCS2	-	-	4.88 µg/mL
Cn1c(-c2ccc(/C=N/NC(N)=NCCCCCCN=C(N)N/N=C/c3ccc(-c4c[n+]5ccccc5n4C)cc3)cc2)c[n+]2ccccc12.I.I.[I-].[I-]	BACTEC	inhibition	-	12.5 µg/mL	H37Rv	-	-	90%
O=C(Cc1csc2nc(-c3ccccc3)cn12)NN=C1CCCC1	-	inhibition	-	6.25 µg/mL	H37Rv	-	-	42%
Cc1c(CC[n+]2cccc(C(N)=O)c2)[nH]c(=O)[nH]c1=O.[Cl-]	BACTEC	MIC bound	-	-	H37Rv	-	-	>12.5 µg/mL
O=C1NC(=S)N/C1=C/c1cccc(OCCc2ccccc2)c1	-	inhibition	-	6.25 µg/mL	H37Rv	-	-	93%
C/C=C/C(=O)NNC(=O)c1ccccc1	-	MIC	-	-	-	-	-	>200 µg/mL
CCCCC(=O)N/N=C/c1cc(Cl)cc(Cl)c1O	BACTEC	inhibition	-	12.5 µg/mL	H37Rv	-	-	-2%
Cc1cccc(Sc2ncccn2)c1	-	inhibition	-	6.25 µg/mL	H37Rv	-	-	0%
O=C(c1ccncc1)N(/N=C/c1cccc(Oc2ccccc2)c1)C(=O)c1cnccn1	-	MIC	-	-	9 isolates (resistant)	-	-	>16 µg/mL
Cc1cc(-c2cc3c(cc2F)c(=O)c(C(=O)O)cn3C2CC2)cc(C)n1	-	MIC	-	-	1024-8	-	-	2 µg/mL
CCOc1cc2c(cc1F)n([O-])c(C)c(Cl)[n+]2=O	-	inhibition	-	6.25 µg/mL	H37Rv	-	-	99%
O=C1CC(N2CCCCC2)C(=O)N1c1ccccc1	BACTEC	MIC	-	-	H37Rv	-	-	≥12.5 µg/mL
c1ccc(-c2cc3ccc(N4CCNCC4)nc3nc2N2CCCCC2)cc1	-	MIC	-	-	H37Rv	-	-	>6.25 µg/mL
O=C(O)c1ccccc1-c1c2ccc(=O)c(I)c-2oc2c(I)c(O)ccc12	BACTEC	inhibition	-	12.5 µg/mL	H37Rv	-	-	0%
O=C(N/N=C/c1ccc(Cl)cc1)c1ccccc1Cl	-	MIC	-	-	-	-	-	40 µg/mL
COc1ccc2c(C)cc(N/N=C/c3cccc4ccccc34)nc2c1	BACTEC	MIC bound	-	-	H37Rv	-	-	>12.5 µg/mL
O=C(Cc1csc2nc(-c3ccc(Cl)cc3)cn12)NN1C(=O)CSC12CCCCC2	-	EC50	-	-	H37Rv	-	-	>6.25 µg/mL